Anti-infective test results gathered from many reports (values: NIAID ChemDB through PubChem).

All rows: cytotoxicity tests; cells: MDCK; endpoint: CC50

Lines come from different laboratories, so protocols vary. CCn: concentration that lowers growth or viability of the cells by n%. a–b is a range or a potency band.

CC(N)C12CC3CC(CC(C3)C1)C2 ; result: 10–4000 µM
COc1cc(OC)nc(NC(=S)NC(=O)COc2ccc(Cl)cc2Cl)n1 ; method: MTS ; result: >300 µM
Cc1cn([C@@H]2C[C@@H](O)[C@H](CO)O2)c(=O)[nH]c1=O ; result: >100 µM
COc1cc(Cl)nc(NC(=S)NC(=O)c2cccnc2Cl)n1 ; method: MTS ; result: >300 µM
CC1(C)C2CC[C@]3(C)C(C(=O)C=C4C5C[C@@](C)(C(=O)O)CC[C@]5(C)CC[C@]43C)[C@@]2(C)CC[C@@H]1O ; method: ATP ; result: >100 µM
CCOc1cc(C)nc(NC(=S)NC(=O)c2ccc(-c3ccccc3Cl)o2)n1 ; method: MTS ; result: >300 µM
CC(N)C12CC3CC(CC(C3)C1)C2 ; result: 1160 µM
COc1cc(O)c(CC=C(C)C)c2c1C(=O)CC(c1ccc(O)cc1)O2 ; result: 25 µg/mL
O=C(NC(=S)Nc1nc(Cl)cc(Cl)n1)c1ccc(-c2ccccc2Cl)o1 ; method: MTS ; result: >300 µM
O=C1C[C@@H](c2ccc(O)cc2)Oc2cc(O)c(-c3c(O)cc4c(c3O)C(=O)C[C@@H](c3ccc(O)cc3)O4)c(O)c21 ; method: visual reading ; result: 15 µg/mL
C[C@@H]1CC[C@H]2[C@@H](C)C(=O)O[C@@H]3OC4(C)CC[C@@H]1[C@]32OO4 ; result: >20 µM
Nc1ncnc2c1ncn2[C@@H]1C[C@@H](O)[C@H](CO)O1 ; result: >100 µM
Nc1ncnc2c1ncn2[C@@H]1C[C@@H](O)[C@H](CO)O1 ; result: >100 µM
C1CCN(CC2CC2)C(C2C3CC4CC(C3)CC2C4)C1 ; result: 977 µM
Cc1cc(C)nc(NC(=O)NC(=O)c2c(F)cccc2F)n1 ; method: MTS ; result: >300 µM
Nc1ccn([C@@H]2C[C@@H](O)[C@H](CO)O2)c(=O)n1 ; result: >100 µM
C#Cc1c(C(N)=O)ncn1[C@@H]1O[C@H](CO)[C@@H](O)[C@H]1O ; method: MTT / neutral red ; result: 5.6 µg/mL
Cc1cc(Cl)nc(NC(=O)NC(=O)c2c(F)cccc2F)n1 ; method: MTS ; result: >300 µM
CC1(C)C2CC[C@]3(C)C(C(=O)C=C4C5C[C@]6(C)C[C@@H](OC6=O)[C@]5(C)CC[C@]43C)[C@@]2(C)CC[C@@H]1O[C@@H]1O[C@H](C(=O)O)[C@@H](O)[C@H](O)[C@H]1O[C@@H]1OC(C(=O)O)[C@@H](O)[C@H](O)[C@H]1O ; method: ATP ; result: >100 µM
Cc1cc(=O)[nH]c(NC(=S)NC(=O)c2ccc(-c3ccc([N+](=O)[O-])cc3)o2)n1 ; method: MTS ; result: >300 µM
O=c1cc(-c2ccc(Oc3c(O)cc4oc(-c5ccc(O)cc5)cc(=O)c4c3O)cc2)oc2cc(O)cc(O)c12 ; method: visual reading ; result: 1.2 µg/mL

A second listing of 3 rows from above:

Cc1cc(=O)[nH]c(NC(=S)NC(=O)c2ccc(-c3ccc([N+](=O)[O-])cc3)o2)n1 ; method: MTS ; result: >300 µM
CC1(C)C2CC[C@]3(C)C(C(=O)C=C4C5C[C@]6(C)C[C@@H](OC6=O)[C@]5(C)CC[C@]43C)[C@@]2(C)CC[C@@H]1O[C@@H]1O[C@H](C(=O)O)[C@@H](O)[C@H](O)[C@H]1O[C@@H]1OC(C(=O)O)[C@@H](O)[C@H](O)[C@H]1O ; method: ATP ; result: >100 µM
O=C1C[C@@H](c2ccc(O)cc2)Oc2cc(O)c(-c3c(O)cc4c(c3O)C(=O)C[C@@H](c3ccc(O)cc3)O4)c(O)c21 ; method: visual reading ; result: 15 µg/mL